Test results reported in PMC8263607, “Precise spatiotemporal control of voltage-gated sodium channels by photocaged saxitoxin” (2021).
“And” between values parts separate entries of the source, which are not always exact repeats. Equal entries are not always repeated.

Experiments:
corpus callosum = assay: Coumarin control in corpus callosum slice (LFP, CSD); details: 500 nM, individual slices
[1] = cited from earlier work

Compound | Amplitude of peak CSD, N1 (corpus callosum) | Amplitude of peak CSD, N2 (corpus callosum) | Amplitude of peak LFP, N2 (corpus callosum) | Time of peak, N1 (corpus callosum) | Time of peak, N2 (corpus callosum) | pKa [1]
O=C(O)CN(CC(=O)O)c1ccc2c(CO)cc(=O)oc2c1 | 10.6 and 6.6 and 11 | 13 and 21.9 and 38 | 0.4 and 0.47 and 0.57 | 1.4 and 1.43 and 1.28 | 3.78 and 3.41 and 2.58 | 
O=c1cc(CO)c2cc(Br)c(O)cc2o1 |  |  |  |  |  | 6.2
